Values from PubChem BioAssay AID1259414 (Drosophila RNAi Screening Center, 2018).
The deposit covers about 24,000 reagents; below is an unselected part of those that have a named target and a result. In the full data, about 1,210 (5%) got an active call. 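Inactive calls also include excluded dsRNAs with several or no targets, genes unexpressed in JW18, and well A1, regardless of score.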 A plus sign joins genes that one reagent is predicted to hit.

- Aim: 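Genome-wide screen for host control of endosymbiont load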 (primary screen)
- Cells: Drosophila JW18 cells infected with Wolbachia
- Reagents: long dsRNA against Drosophila genes, 0.25 µg dsRNA per well of a 384-well plate
- Timing: 5 days
- Treatment: cells persistently infected with Wolbachia before knock-down; no added drug
- Measured: 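Imaged fluorescence in situ signal for Wolbachia 23S rRNA per DAPI-counted host cell, given as a robust z-score within each plate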
- Scale: Wolbachia per cell robust z: higher = more Wolbachia per host cell than the plate typical
- Active means: 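Hit when robust z is 1.5 or more, or -1.5 or less, in at least two of three replicates; excludes dsRNAs with several or no targets, genes not expressed in JW18 and well A1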

| target | amplicon | Wolbachia per cell robust z, rep 1 | Wolbachia per cell robust z, rep 2 | Wolbachia per cell robust z, rep 3 | Outcome |
| --- | --- | --- | --- | --- | --- |
| CG34180 | DRSC38745 | -1.59 | -0.709 | -1.58 | active |
| CG11360 | DRSC17134 | 0.824 | -7.54 | -1.1 | inactive |
| CG43346 + CG43345 | DRSC03164 | 1.29 | 0.334 | 0.664 | inactive |
| IntS2 | DRSC20094 | -0.326 | 1.35 | 2.62 | inactive |
| CG14420 | DRSC17917 | -0.465 | -4.6 | -1.57 | inactive |
| CG14420 | DRSC25167 | -1.21 | 0.697 | -0.314 | inactive |
| mRpS2 | DRSC00550 | -0.296 | -0.394 | 1.1 | inactive |
| Gr59a | DRSC21550 | 0.912 | -0.947 | -0.748 | inactive |
| CG3655 | DRSC18181 | -0.0276 | -0.648 | 0.256 | inactive |
| CG3655 | DRSC18477 | -0.453 | -0.225 | 0.255 | inactive |
| CG3655 | DRSC22688 | 0.297 | 0.223 | -0.975 | inactive |
| out | DRSC19347 | 0.0264 | 0.778 | 1.91 | inactive |
| out | DRSC28913 | -0.102 | 0.284 | 1.13 | inactive |
| CG31817 | DRSC01537 | -0.622 | -0.863 | -0.913 | inactive |
| CG31817 | DRSC01538 | 0.422 | -6.12 | -0.0492 | inactive |
| CG31817 | DRSC22476 | -4.79 | -0.769 | -1.27 | inactive |
| Cpr92F | DRSC15819 | -1.02 | -1.01 | -2.06 | inactive |
| Argl + CG9515 | DRSC03243 | 1 | 0.247 | -0.0517 | inactive |
| Argl + CG9515 | DRSC03245 | 1.53 | -0.444 | 0.798 | inactive |
| PIG-B | DRSC08216 | -0.224 | 1.24 | 0.566 | inactive |
| PIG-B | DRSC22598 | 0.21 | -0.0496 | 0.755 | inactive |
| Ero1L | DRSC08660 | -1.21 | -0.0637 | -0.288 | inactive |
| Phb1 | DRSC03563 | -2.21 | -2.06 | -10.8 | active |
| Phb1 | DRSC27403 | -0.167 | -0.3 | -0.544 | inactive |
| Wbp2 | DRSC25018 | -0.5 | -0.558 | 0.0312 | inactive |
| Sry-beta | DRSC16868 | -0.588 | -0.0916 | -0.42 | inactive |
| Sry-beta | DRSC24321 | 0.456 | 0.00352 | -0.385 | inactive |
| CG1983 | DRSC15410 | -2.06 | -0.673 | 0.0435 | inactive |
| CG13577 | DRSC04213 | -0.0895 | -7.12 | -0.055 | inactive |
| Agxt | DRSC18718 | 0.387 | 0.45 | 0.0829 | inactive |
| Agxt | DRSC26115 | -0.352 | 0.758 | -1.39 | inactive |
| CG4563 | DRSC04474 | 0.428 | -0.834 | 0.987 | inactive |
| CG30203 | DRSC06690 | 0.975 | 0.41 | 0.342 | inactive |
| CG32036 | DRSC10362 | -7.21 | -0.778 | 0.265 | inactive |
| CG32036 | DRSC28171 | -8.45 | -2.41 | -2.45 | inactive |
| Cep97 | DRSC00637 | -2.07 | -3.88 | 0.724 | active |
| up | DRSC20382 | 0.592 | -1.43 | 0.347 | inactive |
| up | DRSC28798 | -2.15 | 0.0737 | -1.12 | inactive |
| T3dh | DRSC28231 | 1.52 | 1.05 | 0.407 | inactive |
| CG14298 | DRSC14777 | 0.195 | 1.16 | -0.846 | inactive |
| CG31635 | DRSC02273 | 1.11 | -0.682 | -1.68 | inactive |
| Coq8 | DRSC19900 | 1.02 | 0.414 | -0.363 | inactive |
| CG9117 | DRSC03141 | -0.644 | -1.07 | -0.388 | inactive |
| Ir94a | DRSC13538 | 0.0576 | 0.749 | 0.455 | inactive |
| Ir94a | DRSC28031 | -0.798 | 0.281 | -1.38 | inactive |
| CG2852 | DRSC04321 | -2.06 | 0.00163 | -0.626 | inactive |
| CG2852 | DRSC27956 | -0.0657 | 0.502 | -0.693 | inactive |
| CG42638 + Trpml | DRSC11032 | -2.29 | 0.0186 | -0.0155 | inactive |
| mnd | DRSC11370 | -0.925 | 0.101 | 0.048 | inactive |
| Fib | DRSC04614 | -1.26 | -2.19 | -3.42 | active |
| cmb | DRSC09790 | 0.44 | -0.243 | 1.28 | inactive |
| cmb | DRSC25444 | -0.208 | -0.899 | -13.6 | inactive |
| cmb | DRSC39052 | -5.64 | 1.46 | -0.852 | inactive |
| CG13405 | DRSC08310 | 0.127 | 0.36 | 0.0517 | inactive |
| CG13405 | DRSC27289 | -6.68 | -2.04 | -3.6 | active |

Only “Wolbachia per cell robust z, rep 2”, for 12 of the entries above:
CG43346 + CG43345 [DRSC03164] = 0.334
IntS2 [DRSC20094] = 1.35
CG14420 [DRSC17917] = -4.6
CG14420 [DRSC25167] = 0.697
mRpS2 [DRSC00550] = -0.394
Gr59a [DRSC21550] = -0.947
CG3655 [DRSC18181] = -0.648
CG3655 [DRSC18477] = -0.225
CG3655 [DRSC22688] = 0.223
out [DRSC19347] = 0.778
out [DRSC28913] = 0.284
CG31817 [DRSC01537] = -0.863

Additional results:
| target | amplicon | Wolbachia per cell robust z, rep 1 | Wolbachia per cell robust z, rep 2 | Wolbachia per cell robust z, rep 3 | Outcome |
| --- | --- | --- | --- | --- | --- |
| Acp65Aa | DRSC09663 | -0.696 | 0.0662 | 0.523 | inactive |
| Acp65Aa | DRSC26708 | 1.16 | 0.467 | 0.484 | inactive |
| CG12605 | DRSC08286 | 0.291 | 0.672 | 1.2 | inactive |
| CG12605 | DRSC28756 | -0.606 | -0.149 | -0.254 | inactive |
| CG12605 | DRSC39045 | -1.1 | 0.0507 | 0.129 | inactive |
| CG9265 | DRSC03178 | 0.31 | 0.428 | -0.253 | inactive |
| CG9265 | DRSC03179 | -1.31 | -0.983 | -0.051 | inactive |
| Porin2 | DRSC02584 | -6.73 | -0.74 | -3.76 | inactive |
| snRNP-U1-C | DRSC15804 | 0.0556 | -0.339 | -0.453 | inactive |
| CG4520 | DRSC15590 | 0.308 | 0.968 | 0.664 | inactive |
| CG4520 | DRSC26216 | 0.283 | -0.198 | 0.845 | inactive |
| RpS27 | DRSC14244 | 1.34 | 0.874 | 1.94 | inactive |
| RpS27 | DRSC29946 | 3.4 | 2.22 | 4.58 | active |
| St2 | DRSC15142 | 1.08 | 0.736 | -0.625 | inactive |
| St2 | DRSC22624 | -0.183 | -1.55 | 0.286 | inactive |
| BckdhA | DRSC16395 | 0.792 | -2.78 | 0.365 | inactive |
| flr | DRSC09787 | 0.299 | 0.19 | -0.225 | inactive |
| alpha-PheRS | DRSC18224 | 0.0271 | -0.426 | -0.465 | inactive |
| alpha-PheRS | DRSC24124 | -0.63 | -1.1 | -0.825 | inactive |
| CG45076 + fau + CG45078 | DRSC12817 | -0.55 | -0.122 | -9.38 | inactive |
| CG45076 + fau + CG45078 | DRSC16943 | -1.13 | 0.39 | -0.0242 | inactive |
| CG45076 + fau + CG45078 | DRSC16944 | 0.608 | -0.605 | 1.24 | inactive |
| CG45076 + fau + CG45078 | DRSC27672 | 0.0124 | 0.394 | -0.954 | inactive |
| CG10257 | DRSC05985 | -1.34 | -4.27 | 0.162 | inactive |
| sordd1 + sordd2 | DRSC20136 | -0.255 | -2.93 | 0.548 | inactive |
| sordd1 + sordd2 | DRSC28444 | -1.44 | 0.609 | -0.402 | inactive |
| CG13377 | DRSC18622 | -0.284 | -1.33 | -0.625 | inactive |
| Chro | DRSC11630 | -0.00487 | 0.965 | 0.591 | inactive |
| Bet1 | DRSC10088 | -0.741 | 1.79 | -0.249 | inactive |
| CG5641 | DRSC15852 | -0.546 | -3.31 | 1.8 | inactive |
| mei-38 | DRSC18564 | 1.09 | 1.62 | 0.587 | inactive |
| Alp8 | DRSC04353 | -1.09 | -0.553 | -0.107 | inactive |
| Alp8 | DRSC27635 | -0.268 | -0.349 | -0.342 | inactive |
| Alp8 | DRSC41594 | 1.58 | 1.19 | 0.63 | inactive |
